Results of unrelated studies side by side (data: NIAID ChemDB).

All rows: tests on isolated targets; species: HIV-1; target: Reverse transcriptase; read by: RT activity; measure: inhibition

Neighbouring rows are from separate reports.

compound,dose,mutations,strain or isolate,conditions,result
NCC1OC(n2cnc3c(N)ncnc32)C(OP(=O)(O)OCC2OC(n3cnc4c(N)ncnc43)C(OP(=O)(O)OCCOCn3cnc4c(N)ncnc43)C2O)C1O,100 µM,-,IIIB,-,63%
COc1c(C)c(O)c(C(C)=O)c(O)c1Cc1c(O)c(C(C)=O)c(O)c(C)c1OC,10 µg/mL,-,-,-,26%
O=C1C2=C(SCCS2)C(=O)N1CCCCN1CCN(c2ccc(F)cc2)CC1,200 µg/mL,-,-,-,82.2%
C/C1=C\C=C\C2(C)C=C(CO)C(C)CC23OC([O-])C(C3=O)C(O)/C=C/C2(C)C=C(C=O)C(C)CC23OC([O-])C(C3=O)C(O)/C(C)=C/C=C/C2C=C(CO)C(C)CC23OC([O-])C(C3=O)C(O)/C=C/C2(C)C=C(C=O)C(C)CC23OC([O-])C(C3=O)C1O,0.16 µg/mL,-,IIIB,-,36.7%
C=C(C)C1CC[C@]2(C(=O)O)CC[C@]3(C)C(CCC4[C@@]5(C)C[C@@H](O)[C@H](C(=O)[O-])C(C)(C)C5CC[C@]43C)C12,200 µg/mL,-,-,-,97.1%
O=C(CCCCCCCCC(=O)Nc1ccc(S(=O)(=O)O)c2ccccc12)Nc1ccc(S(=O)(=O)O)c2ccccc12,50 µM,-,-,-,6%
Cc1[nH]c2ccccc2c1S(=O)(=O)c1ccccc1,100 µM,K103N,-,-,52%
CCCCCCCCCCCCCCCC(=O)Nc1ccc(S(=O)(=O)O)c2cccc(S(=O)(=O)O)c12,50 µM,-,-,-,97.2%
Nc1nc2c(ncn2[C@@H]2O[C@H](COP(=O)(O)O[C@H]3[C@@H](O)[C@H](n4cnc5c(=O)[nH]c(N)nc54)O[C@@H]3CO)[C@@H](O)[C@H]2O)c(=O)[nH]1,100 µM,-,-,-,6%
O=C(Nc1ccc(S(=O)(=O)O)c2cccc(S(=O)(=O)O)c12)c1ccc(C(=O)Nc2ccc(S(=O)(=O)O)c3cccc(S(=O)(=O)O)c23)cc1,50 µM,-,-,-,10%
O=C1C2=C(SCCS2)C(=O)N1CCCCN1CCN(Cc2ccccc2)CC1,200 µg/mL,-,-,-,82.2%
NC1C(O)OC(COS(=O)(=O)O)C(O)C1O,50 µg/mL,-,-,-,32%
O=S(=O)(O)c1cccc2ccc(OS(=O)(=O)c3cccc4c(S(=O)(=O)Oc5ccc6cccc(S(=O)(=O)O)c6c5)cccc34)cc12,50 µM,-,-,-,83%
Nc1nc2c(ncn2[C@@H]2O[C@H](COCO[C@@H]3[C@H](O)[C@@H](CO)O[C@H]3n3cnc4c(=O)[nH]c(N)nc43)[C@@H](O)[C@H]2O)c(=O)[nH]1,100 µM,-,-,-,10%
CCOc1cc(-c2nccc3cc(OC)c(OC)cc23)cc(OCC)c1OCC,1 µM,-,-,4 d,13.4%
O=S(=O)(O)c1cc(S(=O)(=O)O)c2cc(NS(=O)(=O)c3ccc(-c4ccc(S(=O)(=O)Nc5ccc6cc(S(=O)(=O)O)cc(S(=O)(=O)O)c6c5)cc4)cc3)ccc2c1,50 µM,-,-,-,99.1%
Nc1ncnc2c1ncn2[C@@H]1O[C@H](CO)[C@@H](OP(O)(=S)OC[C@H]2O[C@@H](n3cnc4c(=O)[nH]c(NCc5cccc6ccccc56)nc43)[C@H](O)[C@@H]2O)[C@H]1F,100 µM,-,-,-,7%
CCCCCCCCCCCCCCCC(=O)NCC1OC(n2cnc3c(N)ncnc32)C(OP(=O)(O)OCC2CC(OP(=O)(O)OCC3OC(n4cnc5c(N)ncnc54)C(O)C3O)C(n3cnc4c(N)ncnc43)O2)C1O,100 µM,-,IIIB,-,84.5%
COc1ccccc1N1CCN(CC(O)CN2C(=O)C3=C(SCCS3)C2=O)CC1,200 µg/mL,-,-,-,82.2%
CC(=O)NC1[C@H](COC[C@@H]2C(CO)O[C@@H](COC[C@@H]3C(CO)O[C@@H](O)C(NC(C)=O)[C@@H]3O)C(NC(C)=O)[C@@H]2O)OC(CO)[C@@H](O)[C@H]1O,50 µg/mL,-,-,-,2%
COc1cc(O)c2c(=O)cc(-c3cc(O)c(OC)c(OC)c3O)oc2c1,200 µg/mL,-,-,-,0.83%
COc1c(C)c(O)c(C(C)=O)c(O)c1Cc1c(O)c2c(c(C(C)=O)c1O)OC(C)(C)C=C2,10 µg/mL,-,-,-,75%
CCCCCCCCCCCCCCCC(=O)Nc1c(O)cc(S(=O)(=O)O)c2ccccc12,50 µM,-,-,-,97%
O=S(=O)(c1ccc(Cl)cc1)c1c[nH]c2ccccc12,100 µM,K103N,-,-,62%
C=C(C)C1CC[C@@H]2CC[C@]3(C)C(CCC4[C@@]5(C)CC[C@H](O)C(C)(C)C5CC[C@]43C)C12,200 µg/mL,-,-,-,84.4%
O=C(Oc1cc(S(=O)(=O)O)cc2cc(S(=O)(=O)O)ccc12)c1ccc(-c2ccc(C(=O)Oc3cc(S(=O)(=O)O)cc4cc(S(=O)(=O)O)ccc34)cc2)cc1,50 µM,-,-,-,100%

4 of the rows above, restated:

O=S(=O)(O)c1cc(S(=O)(=O)O)c2cc(NS(=O)(=O)c3ccc(-c4ccc(S(=O)(=O)Nc5ccc6cc(S(=O)(=O)O)cc(S(=O)(=O)O)c6c5)cc4)cc3)ccc2c1 ; dose: 50 µM ; result: 99.1%
C=C(C)C1CC[C@]2(C(=O)O)CC[C@]3(C)C(CCC4[C@@]5(C)C[C@@H](O)[C@H](C(=O)[O-])C(C)(C)C5CC[C@]43C)C12 ; dose: 200 µg/mL ; result: 97.1%
CCCCCCCCCCCCCCCC(=O)NCC1OC(n2cnc3c(N)ncnc32)C(OP(=O)(O)OCC2CC(OP(=O)(O)OCC3OC(n4cnc5c(N)ncnc54)C(O)C3O)C(n3cnc4c(N)ncnc43)O2)C1O ; dose: 100 µM ; strain or isolate: IIIB ; result: 84.5%
COc1c(C)c(O)c(C(C)=O)c(O)c1Cc1c(O)c2c(c(C(C)=O)c1O)OC(C)(C)C=C2 ; dose: 10 µg/mL ; result: 75%

Blank or dashed fields: not listed here. Percent inhibition refers to the dose given; in toxicity tests it is the harm to the cells.